Measurements reported in PubChem BioAssay AID1259414 (Drosophila RNAi Screening Center, 2018)

Aim: 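Fly genes that alter Wolbachia amount inside host cells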 (primary screen)
Cell system: Drosophila JW18 cells infected with Wolbachia
Reagent: long dsRNA against Drosophila genes, 0.25 µg dsRNA per well of a 384-well plate
Time to read-out: 5 days
Treatment: cells persistently infected with Wolbachia before knock-down; no added drug
Detection: 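Automated imaging of bacterial rRNA staining divided by host cell count, reported as plate-normalised robust z-score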
Reading the numbers: Wolbachia per cell robust z: higher = more Wolbachia per host cell than the plate typical
Active means: 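Active if absolute robust z reaches 1.5 in two or more of three replicates, leaving out multi- or no-target dsRNAs, genes unexpressed in JW18 and A1 wells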
In all, the deposit lists about 24,000 reagents; below is an unselected part of those that have a named target and a result. In the full data, about 1,210 (5%) got an active call. 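Inactive calls also include excluded dsRNAs with several or no targets, genes unexpressed in JW18, and well A1, regardless of score.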 Entries without a mark were called inactive. No sequences are given here.

CG6937 [DRSC16140] → Wolbachia per cell robust z, rep 1 = 0.924; Wolbachia per cell robust z, rep 2 = -0.0573; Wolbachia per cell robust z, rep 3 = 0.0163
CG6937 [DRSC23708] → Wolbachia per cell robust z, rep 1 = 0.421; Wolbachia per cell robust z, rep 2 = 0.128; Wolbachia per cell robust z, rep 3 = 0.59
CG12502 [DRSC23247] → Wolbachia per cell robust z, rep 1 = -2.8; Wolbachia per cell robust z, rep 2 = 1.69; Wolbachia per cell robust z, rep 3 = 1.02
CG8519 [DRSC10985] → Wolbachia per cell robust z, rep 1 = -0.435; Wolbachia per cell robust z, rep 2 = -0.755; Wolbachia per cell robust z, rep 3 = 0.737
CG8519 [DRSC26203] → Wolbachia per cell robust z, rep 1 = -2.47; Wolbachia per cell robust z, rep 2 = -0.503; Wolbachia per cell robust z, rep 3 = 1.33
Hdc [DRSC07439] → Wolbachia per cell robust z, rep 1 = -1.17; Wolbachia per cell robust z, rep 2 = 0.037; Wolbachia per cell robust z, rep 3 = -2.14
Hdc [DRSC25907] → Wolbachia per cell robust z, rep 1 = -0.453; Wolbachia per cell robust z, rep 2 = 0.0189; Wolbachia per cell robust z, rep 3 = -0.09
CG8360 [DRSC03085] → Wolbachia per cell robust z, rep 1 = 0.691; Wolbachia per cell robust z, rep 2 = -0.0126; Wolbachia per cell robust z, rep 3 = 0.12
CG8360 [DRSC26870] → Wolbachia per cell robust z, rep 1 = -0.735; Wolbachia per cell robust z, rep 2 = -1.86; Wolbachia per cell robust z, rep 3 = -1.07
aust [DRSC02558] → Wolbachia per cell robust z, rep 1 = 0.122; Wolbachia per cell robust z, rep 2 = -2.05; Wolbachia per cell robust z, rep 3 = 0.68
aust [DRSC26019] → Wolbachia per cell robust z, rep 1 = -0.248; Wolbachia per cell robust z, rep 2 = 0.224; Wolbachia per cell robust z, rep 3 = -0.177
Ykt6 [DRSC17970] → Wolbachia per cell robust z, rep 1 = 1.16; Wolbachia per cell robust z, rep 2 = 1.16; Wolbachia per cell robust z, rep 3 = 1.21
Ykt6 [DRSC26017] → Wolbachia per cell robust z, rep 1 = -6.18; Wolbachia per cell robust z, rep 2 = 1.44; Wolbachia per cell robust z, rep 3 = 0.404
wit [DRSC08741] → Wolbachia per cell robust z, rep 1 = 1.3; Wolbachia per cell robust z, rep 2 = 0.104; Wolbachia per cell robust z, rep 3 = -0.169
wit [DRSC26091] → Wolbachia per cell robust z, rep 1 = -0.376; Wolbachia per cell robust z, rep 2 = -1.31; Wolbachia per cell robust z, rep 3 = 0.539
Tmem43 [DRSC10964] → Wolbachia per cell robust z, rep 1 = -0.659; Wolbachia per cell robust z, rep 2 = -0.718; Wolbachia per cell robust z, rep 3 = -1.22
Tmem43 [DRSC26177] → Wolbachia per cell robust z, rep 1 = -0.166; Wolbachia per cell robust z, rep 2 = -0.846; Wolbachia per cell robust z, rep 3 = -1.78
if [DRSC20341] → Wolbachia per cell robust z, rep 1 = -0.198; Wolbachia per cell robust z, rep 2 = 0.615; Wolbachia per cell robust z, rep 3 = -4.84
CG34216 [DRSC38631] → Wolbachia per cell robust z, rep 1 = -0.693; Wolbachia per cell robust z, rep 2 = -4.4; Wolbachia per cell robust z, rep 3 = -7.11
Spn43Aa [DRSC06117] → Wolbachia per cell robust z, rep 1 = 0.047; Wolbachia per cell robust z, rep 2 = -0.616; Wolbachia per cell robust z, rep 3 = -3.44
knk [DRSC15993] → Wolbachia per cell robust z, rep 1 = -4.73; Wolbachia per cell robust z, rep 2 = 0.895; Wolbachia per cell robust z, rep 3 = -5.67
Ccs [DRSC06692] → Wolbachia per cell robust z, rep 1 = -0.0711; Wolbachia per cell robust z, rep 2 = 0.338; Wolbachia per cell robust z, rep 3 = 0.369
MFS10 [DRSC19888] → Wolbachia per cell robust z, rep 1 = -0.302; Wolbachia per cell robust z, rep 2 = -10.9; Wolbachia per cell robust z, rep 3 = -0.276
MFS10 [DRSC26960] → Wolbachia per cell robust z, rep 1 = 0.589; Wolbachia per cell robust z, rep 2 = -1.03; Wolbachia per cell robust z, rep 3 = 0.106
Gpo3 [DRSC01978] → Wolbachia per cell robust z, rep 1 = -0.995; Wolbachia per cell robust z, rep 2 = -0.402; Wolbachia per cell robust z, rep 3 = -0.649
CG1371 [DRSC06409] → Wolbachia per cell robust z, rep 1 = -0.999; Wolbachia per cell robust z, rep 2 = -0.179; Wolbachia per cell robust z, rep 3 = -1.16
Ccp84Ac [DRSC12588] → Wolbachia per cell robust z, rep 1 = 0.158; Wolbachia per cell robust z, rep 2 = -1.15; Wolbachia per cell robust z, rep 3 = -1.74
Ccp84Ac [DRSC25631] → Wolbachia per cell robust z, rep 1 = -4.28; Wolbachia per cell robust z, rep 2 = -0.68; Wolbachia per cell robust z, rep 3 = -0.536
Sfp93F [DRSC41465] → Wolbachia per cell robust z, rep 1 = -0.489; Wolbachia per cell robust z, rep 2 = -0.511; Wolbachia per cell robust z, rep 3 = -0.742
CG32264 [DRSC08061] → Wolbachia per cell robust z, rep 1 = 0.279; Wolbachia per cell robust z, rep 2 = 0.282; Wolbachia per cell robust z, rep 3 = 0.699
CG32264 [DRSC08167] → Wolbachia per cell robust z, rep 1 = 1.15; Wolbachia per cell robust z, rep 2 = 0.444; Wolbachia per cell robust z, rep 3 = -2.42
CG32264 [DRSC08169] → Wolbachia per cell robust z, rep 1 = 0.0535; Wolbachia per cell robust z, rep 2 = 0.455; Wolbachia per cell robust z, rep 3 = -0.724
CG32264 [DRSC08285] → Wolbachia per cell robust z, rep 1 = -0.871; Wolbachia per cell robust z, rep 2 = -4.79; Wolbachia per cell robust z, rep 3 = -1.18
CG32264 [DRSC25774] → Wolbachia per cell robust z, rep 1 = -1.09; Wolbachia per cell robust z, rep 2 = -0.69; Wolbachia per cell robust z, rep 3 = -1.26

6 successive records already listed, quoted:
Tmem43 [DRSC26177] → Wolbachia per cell robust z, rep 1 = -0.166; Wolbachia per cell robust z, rep 2 = -0.846; Wolbachia per cell robust z, rep 3 = -1.78
if [DRSC20341] → Wolbachia per cell robust z, rep 1 = -0.198; Wolbachia per cell robust z, rep 2 = 0.615; Wolbachia per cell robust z, rep 3 = -4.84
CG34216 [DRSC38631] → Wolbachia per cell robust z, rep 1 = -0.693; Wolbachia per cell robust z, rep 2 = -4.4; Wolbachia per cell robust z, rep 3 = -7.11
Spn43Aa [DRSC06117] → Wolbachia per cell robust z, rep 1 = 0.047; Wolbachia per cell robust z, rep 2 = -0.616; Wolbachia per cell robust z, rep 3 = -3.44
knk [DRSC15993] → Wolbachia per cell robust z, rep 1 = -4.73; Wolbachia per cell robust z, rep 2 = 0.895; Wolbachia per cell robust z, rep 3 = -5.67
Ccs [DRSC06692] → Wolbachia per cell robust z, rep 1 = -0.0711; Wolbachia per cell robust z, rep 2 = 0.338; Wolbachia per cell robust z, rep 3 = 0.369
